PubChem BioAssay AID1259414 | Drosophila RNAi Screening Center – 2018
Assay: 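Genome-wide screen for host control of endosymbiont load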 (primary screen). Cell system: Drosophila JW18 cells infected with Wolbachia. Reagent: long dsRNA against Drosophila genes, 0.25 µg dsRNA per well of a 384-well plate. Timing: 5 days. Conditions: cells persistently infected with Wolbachia before knock-down; no added drug. Detection: 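Automated imaging of bacterial rRNA staining divided by host cell count, reported as plate-normalised robust z-score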. Scale: Wolbachia per cell robust z: higher = more Wolbachia per host cell than the plate typical. Active means: 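Active if absolute robust z reaches 1.5 in two or more of three replicates, leaving out multi- or no-target dsRNAs, genes unexpressed in JW18 and A1 wells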.
The deposit covers about 24,000 reagents; shown is an unselected part of those that have a named target and a result. In the full data, about 1,210 (5%) are marked active. 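Inactive calls also include excluded dsRNAs with several or no targets, genes unexpressed in JW18, and well A1, regardless of score.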 Names joined by + are all predicted targets of the reagent.

The first 6 entries, ahead of the listing:
Target gene,amplicon,"Wolbachia per cell robust z, rep 1","Wolbachia per cell robust z, rep 2","Wolbachia per cell robust z, rep 3",activity call
CSN5,DRSC16592,1.13,0.978,-0.626,inactive
CSN5,DRSC22381,-1.25,0.668,1.02,inactive
CSN5,DRSC27904,0.456,0.519,1.21,inactive
Pdp1,DRSC08896,2.69,3.96,2.27,active
Pdp1,DRSC08897,3.66,3.36,3.75,active
Pdp1,DRSC11251,0.139,-0.185,0.383,inactive

Main list, repeating the preview:
Target gene,amplicon,"Wolbachia per cell robust z, rep 1","Wolbachia per cell robust z, rep 2","Wolbachia per cell robust z, rep 3",activity call
CSN5,DRSC16592,1.13,0.978,-0.626,inactive
CSN5,DRSC22381,-1.25,0.668,1.02,inactive
CSN5,DRSC27904,0.456,0.519,1.21,inactive
Pdp1,DRSC08896,2.69,3.96,2.27,active
Pdp1,DRSC08897,3.66,3.36,3.75,active
Pdp1,DRSC11251,0.139,-0.185,0.383,inactive
Pdp1,DRSC22973,-2.88,0.114,-1.03,inactive
Pp1-Y1,DRSC38778,0.643,0.353,1.13,inactive
Pp1-Y1,DRSC40659,1.11,1.39,-0.353,inactive
Nlg1,DRSC12485,-1.19,-2.62,-1.52,inactive
Nlg1,DRSC12532,-0.542,-8.6,0.373,inactive
Nlg1,DRSC12533,0.256,-2.73,-0.537,inactive
Nlg1,DRSC12539,0.532,-0.173,0.715,inactive
CG6891,DRSC20016,-0.186,-9.35,-1.16,inactive
CG6891,DRSC25854,-0.516,-0.0424,-1.72,inactive
CG14223,DRSC19580,-0.559,-0.0452,-1.62,inactive
CG14223,DRSC24816,1.44,1.64,1.71,active
mad2,DRSC10274,1.72,1.57,0.272,active
CG7408,DRSC10841,0.676,0.419,1.64,inactive
Jon99Fi,DRSC26496,0.883,0.707,0.828,inactive
CG12895,DRSC06210,-0.975,0.0417,-0.108,inactive
CG12895,DRSC25590,-0.319,-0.0584,0.288,inactive
CG14882,DRSC15006,-2.11,0.0209,-0.265,inactive
CG14882,DRSC28318,-1.04,-2.84,-0.399,inactive
CG11267,DRSC09833,0.248,1.02,-0.949,inactive
wisp,DRSC23092,0.505,-0.0713,0.464,inactive
wisp,DRSC25917,0.436,-0.246,-1.14,inactive
cora,DRSC07597,-0.299,-3.53,-0.461,inactive
cora,DRSC28125,0.505,-0.775,-0.0131,inactive
cora,DRSC40844,-2.4,-0.692,-2.6,active
Rph,DRSC17790,0.66,-1.02,0.233,inactive
Rph,DRSC23887,0.885,0.883,0.59,inactive
CG1764,DRSC19779,0.28,0.136,-0.446,inactive
U2af38,DRSC00796,0.567,-7.21,2.44,inactive
U2af38,DRSC28068,0.715,1.36,2.52,inactive
CG43668 + CG43667 + CG43666,DRSC04233,-4.58,1.32,0.836,inactive
EMC8-9,DRSC04380,-0.754,1.03,0.478,inactive
CG14401,DRSC02385,1.36,1.25,-0.021,inactive
CG14401,DRSC21710,-0.532,-0.314,-1.16,inactive
CG14401,DRSC24098,1.07,1.3,0.616,inactive
alpha-Cat,DRSC11917,-2.01,-0.384,-0.0603,inactive
CG14253,DRSC14748,-4.59,-3.6,0.806,active
CG30440,DRSC04775,-1.04,-8.72,-1.48,inactive
CG30440,DRSC04845,1.17,0.803,0.491,inactive
CG30440,DRSC04855,-2.05,-0.641,-0.618,inactive
CG4610,DRSC04477,1.15,0.32,0.996,inactive
CG4610,DRSC22397,0.72,0.107,0.151,inactive
CG4610,DRSC29602,-0.787,0.0537,0.513,inactive
CG3823,DRSC18325,0.696,0.0117,-0.107,inactive
CG3823,DRSC26025,0.158,-0.0755,-0.345,inactive
CG12171,DRSC12200,0.168,-0.685,-0.283,inactive
CG12171,DRSC25540,-0.788,-2.24,-1.62,active
lncRNA:CR9284,DRSC03899,0.228,-5.36,-0.103,inactive
lncRNA:CR9284,DRSC04536,0.514,0.45,-1.02,inactive
Prosalpha3T,DRSC15226,0.179,0.168,0.118,inactive
Rpi,DRSC04583,0.55,-0.627,0.041,inactive
shi,DRSC20373,1.46,-1.58,10.9,inactive
shi,DRSC29498,1.33,-0.68,0.463,inactive
ru,DRSC08258,-0.192,0.654,0.852,inactive
ru,DRSC28529,-0.0912,1.03,-0.844,inactive
Strn-Mlck,DRSC05032,-1.67,-0.0695,-0.509,inactive
Strn-Mlck,DRSC06571,0.336,-1.07,-0.43,inactive
Strn-Mlck,DRSC07471,0.438,-0.897,-0.669,inactive
CG13306,DRSC09976,0.974,0.678,1.35,inactive
Cyp313a3,DRSC16626,0.201,0.607,-5.02,inactive
tadr,DRSC03177,-0.0476,0.403,1.02,inactive
CG3081,DRSC18571,-2.28,-0.288,-0.769,inactive
Tet,DRSC08550,-0.0211,-0.389,-0.645,inactive
Tet,DRSC08646,-0.309,-0.223,-0.221,inactive
Tet,DRSC26922,-0.883,-1.09,-0.187,inactive
Tet,DRSC28377,0.158,-1.91,-4.01,active
CG13872,DRSC06431,0.433,-1.34,-1.2,inactive
Mco1,DRSC02720,-3.63,-0.845,-0.44,inactive
be,DRSC19607,0.646,0.572,-0.348,inactive
be,DRSC19944,-0.867,-0.891,-2.42,inactive
be,DRSC19945,-0.34,-0.113,-2.08,inactive
CG7137,DRSC07017,0.219,0.306,-0.732,inactive
wntD,DRSC16423,0.58,0.543,1.84,inactive
wntD,DRSC28538,1.2,-0.774,0.974,inactive
Pal2,DRSC04507,-1.6,0.491,-0.204,inactive
CG18273,DRSC18150,-4.51,1.07,0.728,inactive
CG18273,DRSC18505,-3.78,0.073,-0.191,inactive
CG15771,DRSC18077,-3.64,0.0347,0.492,inactive
dsf,DRSC03524,-5.13,-1.52,-0.0671,inactive
dsf,DRSC23510,0.0383,0.797,2.08,inactive
CG10445,DRSC14247,-2.32,0.651,-0.58,inactive
CG14989,DRSC08448,0.564,-0.843,-0.969,inactive
CG14989,DRSC25585,1.16,-0.482,-0.559,inactive
